# Potato spindle tuber viroid, loop 6: variant abundance in plants

Region: loop 6 of PSTVd (intermediate strain), upper and lower strand joined, each 5' to 3', the first 5 letters being the upper strand, closing pairs included. Wild type: UGACCGCGAG. Varied positions (N): UNNNCGNNNG.

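A pool of all variants was put on leaves of three Nicotiana benthamiana plants. Samples came from the inoculated region at 5 days, the leaf margin at 10 and upper systemic leaves at 12.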

Numbers give reads per thousand; 0 = not seen among the reads, higher = more abundant. Each value is the mean of three plants. "Pool" is the share in the plasmid pool used as inoculum, on the same scale. The inoculated region was read from the minus strand, the other sites from the plus strand.

UCCGCAGCGG (pool 0.0131): inoculated region 0; leaf margin 0; systemic leaves 0.
UAGCCGCACG (pool 0.209): inoculated region 0.101; leaf margin 0.0246; systemic leaves 0.
UAUUCGGACG (pool 0.392): inoculated region 0.0652; leaf margin 0; systemic leaves 0.
UAACCGAGCG (pool 0.105): inoculated region 0.584; leaf margin 0.102; systemic leaves 0.
UUGGCGAUUG (pool 0.445): inoculated region 0.0887; leaf margin 0; systemic leaves 0.
UGUACGGAGG (pool 0.183): inoculated region 0.106; leaf margin 0.00920; systemic leaves 0.
UAUUCGUCAG (pool 0.261): inoculated region 0.0831; leaf margin 0.00773; systemic leaves 0.
UGCCCUACGG (pool 0.0131): inoculated region 0; leaf margin 0; systemic leaves 0.
UCUUCGUCCG (pool 0.222): inoculated region 0.120; leaf margin 0.00773; systemic leaves 0.
UAACCGUACG (pool 0.170): inoculated region 0.684; leaf margin 0.0445; systemic leaves 0.
UAACCGGACG (pool 0.301): inoculated region 0.607; leaf margin 0.106; systemic leaves 0.
UAACCGCGCG (pool 0.170): inoculated region 0.669; leaf margin 0.0859; systemic leaves 0.0196.
UCUUCGGACG (pool 0.235): inoculated region 0.0781; leaf margin 0.0168; systemic leaves 0.
UCAACGGAAG (pool 0.0392): inoculated region 0.560; leaf margin 0.0776; systemic leaves 0.
UGUCCGGGCG (pool 0.222): inoculated region 0.0771; leaf margin 0; systemic leaves 0.
UUACCGAAGG (pool 0.131): inoculated region 0.126; leaf margin 0; systemic leaves 0.
UUUCCGCAAG (pool 0.170): inoculated region 0.581; leaf margin 0.110; systemic leaves 0.
UGUUCACGAG (pool 0.0131): inoculated region 0; leaf margin 0; systemic leaves 0.
UCCACGCUGG (pool 0.131): inoculated region 0.0660; leaf margin 0.00773; systemic leaves 0.
UAGACGUGCG (pool 0.222): inoculated region 0.660; leaf margin 0.150; systemic leaves 0.
UUUCCGGUGU (pool 0.0131): inoculated region 0; leaf margin 0; systemic leaves 0.
UGAACGUUAG (pool 0.379): inoculated region 0.794; leaf margin 0.0522; systemic leaves 0.
UACUCGACGG (pool 0.235): inoculated region 0.0834; leaf margin 0.00773; systemic leaves 0.
UUCCCGAGCG (pool 0.248): inoculated region 0.0721; leaf margin 0; systemic leaves 0.
UCCUCGACCG (pool 0.157): inoculated region 0.0831; leaf margin 0; systemic leaves 0.
UCGACGGUGG (pool 0.209): inoculated region 0.118; leaf margin 0.00920; systemic leaves 0.
UUAGCGGAUG (pool 0.366): inoculated region 0.0652; leaf margin 0.00920; systemic leaves 0.
UAUCCGCGUG (pool 0.157): inoculated region 0.119; leaf margin 0.00841; systemic leaves 0.
UCCCCGCUUG (pool 0.222): inoculated region 0.130; leaf margin 0.0161; systemic leaves 0.
UACACGGGGG (pool 0.118): inoculated region 0.0653; leaf margin 0; systemic leaves 0.
UCAGCGUGUG (pool 0.209): inoculated region 0.102; leaf margin 0.00773; systemic leaves 0.

Samples held 36,220 to 57,551 reads, so the smallest values rest on one or two reads. The authors trace changes outside the varied positions to PCR and sequencing errors or to mutation in the plant; presence does not show that a variant is infectious alone. For reference, wild type rose from 20.7 per thousand in the pool to 195, 198, 203 (inoculated region), 629, 591, 734 (leaf margin) and 942, 870, 868 (systemic leaves).

From the data files of Wu et al. 2024, doi:10.1371/journal.ppat.1012142.